According to patent publication US9452154B2, “Methods for treating HCV” (Gilead Sciences, Inc., priority 2010, dated 2016):
Values joined by “and” are separate entries in the source; they are usually repeats but may differ in a detail not shown here. Identical values can stand only once.

Columns and labels:
[1] = test system: HCV genotype 1b replicon cells (Huh-luc); test: Biological Example 2: antiviral combination studies with Compound 3 (MacSynergy II); settings: in combination with Compound 3
[2] = test system: HCV genotype 1b replicon cells (Huh-luc); test: Biological Example 1: antiviral combination study (MacSynergy II); settings: in combination with Compound 2

**Q.** With `Fc1ccccc1-c1nc2ccn(Cc3ccc(-c4ccc(C(F)(F)F)cc4C(F)(F)F)nn3)cc-2n1` [Compound 1, 5-((6-(2,4-bis(trifluoromethyl)phenyl)pyridazin-3-yl)methyl)-2-(2-fluorophenyl)-5H-imidazo[4,5-c]pyridine] as the molecule, how does the “Antagonism Volume” value [1] read?
**A.** Its value is 4.22 ± 5.0 nM^2.

**Q.** And the Interaction [1]?
**A.** Its Interaction is “Additive”.

**Q.** And the “Synergy Volume” value [1]?
**A.** Its value is 14.5 nM^2 and 14.5 ± 0.7 nM^2.

**Q.** What about the “Antagonism Volume” value [2] of the same molecule?
**A.** Its value is 0.07 ± 0.07 nM^2.

**Q.** What about the Interaction [2] of the same molecule?
**A.** Its Interaction is “Additive (Additive if volumes are >−50 nM^2 and ≦50 nM^2)”.

**Q.** For IFN-α [reference compound], which “Antagonism Volume” value [1] is on record?
**A.** Its value is 0.15 ± 0.2 nM^2.

**Q.** And the Interaction [1]?
**A.** The Interaction was “Minor synergy (Minor synergy if volumes are >25 and <50 nM^2)”.

**Q.** What about the “Synergy Volume” value [1] of the same molecule?
**A.** The value was 32 nM^2 and 32 ± 4.2 nM^2.

**Q.** What does the source list for `NC(=O)c1ncn([C@@H]2O[C@H](CO)[C@@H](O)[C@H]2O)n1` [Ribavirin, 1-β-D-ribofuranosyl-1H-1,2,4-Triazole-3-carboxamide, reference compound]?
**A.** Antagonism Volume [1]: 1.6 ± 2.3 nM^2; Interaction [1]: Moderate synergy (Moderate synergy if volumes are >50 and ≦100 nM^2); Synergy Volume [1]: 54 ± 14.1 nM^2
